Laboratory results: the supplement of paper PMC9931576
Human monoclonal antibodies against the spike receptor-binding domain (heavy:light variable regions). IC50 against pseudoviruses bearing the spike of naturally observed variants; lower = stronger; >10 µg/ml means not reached at the top dose. No active / inactive call. The stated detection limit is 0.0005 µg/ml; values near or below 0.001 µg/ml lie at the floor of the assay.

Columns and labels:
Experiment in all cases: pseudovirus neutralization IC50; higher = weaker neutralization
[1] = target: SARS-CoV-2 Omicron BA.1 spike pseudovirus
Procedure: (§1)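 Single-round VSV luciferase pseudovirus mixed with antibody dilutions for 1 h and put on Huh-7 cells for about a day; IC50 from the dose curve.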

[2] = target: SARS-CoV-2 Omicron BA.2 spike pseudovirus
Procedure: as §1

[3] = target: SARS-CoV-2 Omicron BA.2.75 spike pseudovirus
Procedure: as §1

[4] = target: SARS-CoV-2 Omicron BA.5 spike pseudovirus
Procedure: as §1

[5] = target: SARS-CoV-2 Omicron BQ.1.1 spike pseudovirus
Procedure: as §1

[6] = target: SARS-CoV-2 Omicron XBB spike pseudovirus
Procedure: as §1

[7] = target: SARS-CoV-2 early D614G spike pseudovirus
Procedure: as §1

B1: BD57-0205 (protein)
chain 1: EVHLVQSGAEVKKPGESLKISCKGSGYNFSFYWIAWVRQMPGKGLEWMGIIYPGDSDTRYSPSFQGQVTISADKSISTAYLQWSSLKASDTAIYYCARLDILTGSGRYWGQGTLVTVSS
chain 2: DIQMTQSPSSLSASVGDRVTITCQASQDITNHLNWYQQKPGQAPKLLIYDASILETGVPSRFSGSGSGTDFTFTISSLQPEDIATYYCQQFKTLLTWTFGQGTKVAIK
- pseudovirus neutralization IC50 [1]: 0.00219 µg/mL
- pseudovirus neutralization IC50 [2]: 0.00498 µg/mL
- pseudovirus neutralization IC50 [3]: 0.0212 µg/mL
- pseudovirus neutralization IC50 [4]: 0.00678 µg/mL
- pseudovirus neutralization IC50 [5]: 3.33 µg/mL
- pseudovirus neutralization IC50 [6]: 3.31 µg/mL
- pseudovirus neutralization IC50 [7]: 0.00327 µg/mL

B2: BD57-0225 (protein)
chain 1: QVQLMQSGAAVKKPGSSVKVSCKASGGTFLTYAINWVRQAPGQGLEWMGRIIPIVGRGDYAQKFQGRVTITADKSTSTVFMEVSTLRPEDTAVYYCARVKENIAVVPAEEPDAFDTWGQGTMVTVSS
chain 2: DIVMTQSPDSLAVFLGERATINCKSSQSVLHNFNNKNHLAWYQQKPGQPPKLLIYWASTRESGVPDRFSGSGSGTDFTLTINSLQAEDAAVYYCQQYYSPPMYTFGQGTKLEIK
- pseudovirus neutralization IC50 [1]: 0.000831 µg/mL
- pseudovirus neutralization IC50 [2]: 0.0013 µg/mL
- pseudovirus neutralization IC50 [3]: 0.000762 µg/mL
- pseudovirus neutralization IC50 [4]: 0.00232 µg/mL
- pseudovirus neutralization IC50 [5]: > 10 µg/mL
- pseudovirus neutralization IC50 [6]: 0.333 µg/mL
- pseudovirus neutralization IC50 [7]: 0.000429 µg/mL

B3: BD57-0212 (protein)
chain 1: EVQLVESGGGLVQPGGSLRLSCTASGFTFSNYDFLWVRQATGKSLEWVSAIGTAGDTYYPDSVKGRFTISRENAKNSLYLQMNSLRAGDTAVYYCARDSGESSSWIFDYWGQGILVTVTS
chain 2: DIQMTQSPSSLSASVGDRVTITCRASQSINRFLNWYQQKPGKAPKLLIYAASSLQSGVPSRFSGSGSGTHYTLTISSLQPEDFATYYCQQSYETPAITFGGGTKVEIK
- pseudovirus neutralization IC50 [1]: 3.44 µg/mL
- pseudovirus neutralization IC50 [2]: 3.05 µg/mL
- pseudovirus neutralization IC50 [3]: 2.22 µg/mL
- pseudovirus neutralization IC50 [4]: 2.61 µg/mL
- pseudovirus neutralization IC50 [5]: 3.99 µg/mL
- pseudovirus neutralization IC50 [6]: 3.26 µg/mL
- pseudovirus neutralization IC50 [7]: 4.63 µg/mL

B4: BD57-0219 (protein)
chain 1: QVQLQESGPRLVKSSETLSLTCTVSGVSISSSYWSWIRQPPGKGLEWIGNIFYSGSTNYNPSLKSRVTISVDTSQMHFSLRLSSVTAADTAVYYCARDPLGYKGGEFDYWGQGTLVTVSS
chain 2: QSVLTQPPSVSAAPGQKVTISCSGSNSNIGDNYISWYQHLPGTAPRLLIYDNNKRPSGIPDRFSGSKSGTSATLGITGLQTGDEADYYCGTWDSSLNIVLFGGGTKLTVL
- pseudovirus neutralization IC50 [1]: 1.58 µg/mL
- pseudovirus neutralization IC50 [2]: 1.49 µg/mL
- pseudovirus neutralization IC50 [3]: 1.61 µg/mL
- pseudovirus neutralization IC50 [4]: 2.21 µg/mL
- pseudovirus neutralization IC50 [5]: 2.53 µg/mL
- pseudovirus neutralization IC50 [6]: 2.06 µg/mL
- pseudovirus neutralization IC50 [7]: 1.86 µg/mL

B5: BD57-0232 (protein)
chain 1: QVQLAQSGAEVKKPGSSVKVSCKASGGTFSNYPIGWVRQAPGHGLEWMGSIIPIVGIANYAQNFEGRVTLTADKSTSTAYMELSSLRSEDTALYYCARSLGYSGYGAASYFDPWGQGTLVTVSS
chain 2: QSVLTQPPSVSGAPGQRVTISCTGSNSNIGAGYDVHWYQLLPGTAPKLLIYVNSNRPSGVPDRFSGSKSGTSASLAITGLQAEDEADYYCQSYDSSLSGSIFGGGTRLTVL
- pseudovirus neutralization IC50 [1]: 0.0624 µg/mL
- pseudovirus neutralization IC50 [2]: 0.0305 µg/mL
- pseudovirus neutralization IC50 [3]: 0.0157 µg/mL
- pseudovirus neutralization IC50 [4]: 0.429 µg/mL
- pseudovirus neutralization IC50 [5]: 3.12 µg/mL
- pseudovirus neutralization IC50 [6]: 0.954 µg/mL
- pseudovirus neutralization IC50 [7]: 0.246 µg/mL

B6: BD57-0218 (protein)
chain 1: QVQLVQSGAEVKKPGASVRVSCKASDYTFTTYTITWVRQAPGRGLEWMGWISAYNGDTNYAQRLQGRVTMTTDTSTSTAYLELRSLRSDDTAVYYCASDFGDAGLVSGLDVWGQGTTVTVSS
chain 2: DIQMTQSPSSLSASVGDRVTVTCRASQSIRNFLHWYQQKPGKAPKLLIHAASSLQSGVPSRFSGSGSGTDFTLTISSLQPEDFATYYCQQSYSSPHTFGPGTKVDIK
- pseudovirus neutralization IC50 [1]: 1.05 µg/mL
- pseudovirus neutralization IC50 [2]: 1.31 µg/mL
- pseudovirus neutralization IC50 [3]: 0.391 µg/mL
- pseudovirus neutralization IC50 [4]: 1.97 µg/mL
- pseudovirus neutralization IC50 [5]: > 10 µg/mL
- pseudovirus neutralization IC50 [6]: > 10 µg/mL
- pseudovirus neutralization IC50 [7]: 0.413 µg/mL

B7: BD57-0222 (protein)
chain 1: EVQLVQSGAVLKKPGESLKISCTGSGYSFTNYWIAWVRQRPGKGLEWMGIIYPGDSDTRYNPSFQGQVTFSTDMSTAYLQWNSLKASDTAIYYCATSRGGAYDPYGDYPHWGQGTLVTVSS
chain 2: EIVLTQSPATLSLSPGERGTLSCGASQSLGGPYLAWYQQKPGLAPRLLIYEASNRATGIPDRFSGSGSGTDFTLTISKLEPEDFAVYYCQQYGSSPLTFGGGTRVEIK
- pseudovirus neutralization IC50 [1]: 0.605 µg/mL
- pseudovirus neutralization IC50 [2]: 0.336 µg/mL
- pseudovirus neutralization IC50 [3]: 0.557 µg/mL
- pseudovirus neutralization IC50 [4]: 0.352 µg/mL
- pseudovirus neutralization IC50 [5]: 2.43 µg/mL
- pseudovirus neutralization IC50 [6]: 1.87 µg/mL
- pseudovirus neutralization IC50 [7]: 1.64 µg/mL

B8: BD57-0233 (protein)
chain 1: QVQLVQSGGEVKKPGASVKVSCKASGYTFTSYGISWVRQAPGQGLEWMGWISAYNGNTNYAQSFQDRVTMTTDTSTSTVYMELRSLRSDDTAVYYCARVWDYYDSSVFQTQYYFDSWGQGTLVTVSS
chain 2: DIQMTQSPSSVSASVGDRVTITCRASQGISNWLAWYQQKPGKAPKLLIYAASSLQSGVPSRFSGSGSGTDFTLTISSLQPEDFATYYCQQGNSFPPIFTFGPGTKVDIK
- pseudovirus neutralization IC50 [1]: 2.71 µg/mL
- pseudovirus neutralization IC50 [2]: 1.99 µg/mL
- pseudovirus neutralization IC50 [3]: 3.92 µg/mL
- pseudovirus neutralization IC50 [4]: 3.3 µg/mL
- pseudovirus neutralization IC50 [5]: 2.5 µg/mL
- pseudovirus neutralization IC50 [6]: 2.72 µg/mL
- pseudovirus neutralization IC50 [7]: > 10 µg/mL

B9: BD57-0231 (protein)
chain 1: QVQLVQSGAEVKKPGASVKVSCQASGATFTIYGFHWVRQAPGQGLEWLGWMSTYNGNTDYGQKFQGRVTVTTDTSTSTAWMELRSLRSDDTAVYYCASQRHCGGETCYFENWGQGTLVTVSS
chain 2: DIVLTQSPGTLSLSPGERATLSCRASQSVSSTSLAWYQQKPGQAPRLLIYRASTRATGIPDRFSGSGSATDFTLIISRLEPEDFAVYYCHHYGTSPLTFGGGTTVEIK
- pseudovirus neutralization IC50 [1]: > 10 µg/mL
- pseudovirus neutralization IC50 [2]: > 10 µg/mL
- pseudovirus neutralization IC50 [3]: 0.167 µg/mL
- pseudovirus neutralization IC50 [4]: 0.407 µg/mL
- pseudovirus neutralization IC50 [5]: 0.379 µg/mL
- pseudovirus neutralization IC50 [6]: 2.28 µg/mL
- pseudovirus neutralization IC50 [7]: 0.00123 µg/mL

B10: BD57-0206 (protein)
chain 1: QVQLVESGGGVVQPGRSLRLSCAASGFSLITYDIHWVRQAPGKGLEWVANIWYDGSNKYYVDSVKGRFTISRDNSKNTVFLQMNSLRAEDTAVYYCARDSGIVVASPDYWGQGTLVIVSS
chain 2: DVVMTQSPPSLPVTLGQPASISCRSSQSLVYVDGNTYLSWFHQRPGQSPRRLIYEVSNRGSGVPDRFSGSGSGTDFTLKISRVEAEDVGVYYCMQGTHWPWTFGQGTKVELK
- pseudovirus neutralization IC50 [1]: 1.19 µg/mL
- pseudovirus neutralization IC50 [2]: 1.09 µg/mL
- pseudovirus neutralization IC50 [3]: 0.721 µg/mL
- pseudovirus neutralization IC50 [4]: 0.768 µg/mL
- pseudovirus neutralization IC50 [5]: > 10 µg/mL
- pseudovirus neutralization IC50 [6]: 0.754 µg/mL
- pseudovirus neutralization IC50 [7]: > 10 µg/mL

B11: BD57-0224 (protein)
chain 1: QVQLVESGGGVVQPGRSLRLSCAASGFTFSSSPLHWVRQAPGKGLEWVAFISYDGTNKYYADSVKGRFTVSRDNFKNTLYLEMNSLRAEDTAFYYCTRATGGEVFTLDAFDIWGQGTMVTVSS
chain 2: SYVLTQPPSVSVAPGKTATITCGGNSIGSKSVHWYQQKPGQSPVLVIYYDSDRPSGIPERFSGSNSGNTATLTISRVEAGDEADYYCQVWDIGVVFGGGTKLTVL
- pseudovirus neutralization IC50 [1]: > 10 µg/mL
- pseudovirus neutralization IC50 [2]: > 10 µg/mL
- pseudovirus neutralization IC50 [3]: > 10 µg/mL
- pseudovirus neutralization IC50 [4]: > 10 µg/mL
- pseudovirus neutralization IC50 [5]: > 10 µg/mL
- pseudovirus neutralization IC50 [6]: > 10 µg/mL
- pseudovirus neutralization IC50 [7]: > 10 µg/mL

B12: BD57-0227 (protein)
chain 1: QVQLVESGGGVVQPGRSLRLSCAASGFTFSSYAMHWVRQTPGKGLQWVAVISSDGSNTYYADSVKGRFTISRDNAKNTLFLEMNSLRAEDTAVYYCARDCPIAEHQMPEYCSGGSRYSFYFDSWGQGTLVTVSS
chain 2: SYVLTQPPSVSVPPGKTARFTCGGNNIGSRSVHWYQQKPGQAPMLVIYYDNDRPSGIPERFSGSNSGNTATLTISRVEAGDEADYYCQVWDSYTDHVIFGGGTKLTVL
- pseudovirus neutralization IC50 [1]: > 10 µg/mL
- pseudovirus neutralization IC50 [2]: > 10 µg/mL
- pseudovirus neutralization IC50 [3]: > 10 µg/mL
- pseudovirus neutralization IC50 [4]: > 10 µg/mL
- pseudovirus neutralization IC50 [5]: > 10 µg/mL
- pseudovirus neutralization IC50 [6]: > 10 µg/mL
- pseudovirus neutralization IC50 [7]: > 10 µg/mL
